Results: patent US8901042B2, “High throughput screen for measuring membrane effects” (Cornell University, priority 2009, dated 2014)

These compounds were tested on gramicidin A (gA) channels in DC22:1PC lipid bilayer vesicles (assay: gramicidin-based stopped-flow fluorescence quench assay (Tl+ influx into ANTS-filled, gA-doped LUVs)). Conditions: at the concentration where the molecules double or half the rate of fluorescence quenching.
Assay type: biochemical, Bacillus brevis
Description: 24 hours before fluorescence measurements, ANTS-filled liposomes were mixed 1:20 in S_Na_Buffer. For the portion of liposomes that are to be doped with gramicidin, the desired amount of gramicidins was added at this time. […] Gramicidin diluted in DMSO was used, but the added DMSO was kept to an absolute minimum (<0.1% of volume) as DMSO of >0.5% affects bilayer properties. The solution was stored at 12-13° C. in the dark.
The modifier in question was diluted in DMSO. The same amount of DMSO was added to all samples, including control.
For each condition: • 1. Use 1.5 mL of diluted ANTS-liposomes for each condition (compound, concentration). • 2. Add compound at the desired concentration and incubate for 10 min at 25° C. (keep in dark), or DMSO for controls. • 3. Record fluorescence, x8 repeats, with S_Na_Buffer (the first four should be removed due to mixing). • 4. Record fluorescence, x12 repeats, with S_Tl_Quencher (the first four should also be removed due to mixing).
Generate fluorescent liposomes. […] 1,2-Dierucoyl-sn-Glycero-3-Phosphocholine lipids, from Avanti Polar Lipids (Alabaster, Ala.), were bought in a lipid/chloroform solution and used without further purification. For each batch of vesicles, the lipid/chloroform solution was dried under nitrogen and then further dried in a dessicator under vacuum overnight to fully remove the chloroform. The dried lipid film was rehydrated in 100 mM NaNO3, 25 mM ANTS, 10 mM HEPES at pH 7.0 at room temperature over night, volume was adjusted to give a 10 mM lipid concentration. […] Before the fluorescence experiments ANTS-LUV stock was diluted 1:20 with 140 mM NaNO3, 10 mM HEPES, pH 7.0 buffer. […]
The fluorescence was measured using a SX.20 Stopped-Flow Spectrometer (Applied Photophysics, Leatherhead, UK), with a 150-W Xenon lamp, a two sample rapid mixing unit with machine dead time˜1.2 ms and a thermostatting water bath set to 25° C. The samples were excited at X=352 nm and fluorescence was recorded though λ=455 nm high pass filter with Pro-Data control software from Applied Photophysics, sampling 5000 points a second. For each sample at least 10 repeated mixing trials were measured, from two or more vesicle preparations. Each repeat was separately analyzed using MATLAB v7.4, The MathWorks, Inc (Natick, Mass.). The time course of fluorescence quenching was normalized to the average fluorescence without quencher, for that particular sample, and the first 2-100 ms of the time course was fitted with a stretched exponential. The initial influx rate is quantified as the rate of the stretched exponential at 2 ms.
In the case of C[S+](C)[O-] [Dimethyl sulfoxide], the “Lipids/drug: number of lipids per molecule at their active concentration (~1/mAM)” value is reported as 90.
With Oc1cc2c(cc1O)CN(C(=S)NCCc1ccc(Cl)cc1)CCC2 [Capsazepine] the “Lipids/drug: number of lipids per molecule at their active concentration (~1/mAM)” value was 15.
O=c1c(-c2ccc(O)cc2)coc2cc(O[C@@H]3O[C@H](CO)[C@@H](O)[C@H](O)[C@H]3O)cc(O)c12 [Genistin] was tested, and the “Lipids/drug: number of lipids per molecule at their active concentration (~1/mAM)” value was 200.
For OC(c1cc(C(F)(F)F)nc2c(C(F)(F)F)cccc12)C1CCCCN1 (stereo not shown) [Mefloquine], the “Lipids/drug: number of lipids per molecule at their active concentration (~1/mAM)” value was 8.
